Source: PubChem BioAssay AID624268 (The Scripps Research Institute Molecular Screening Center, 2012)
This is a selection; strong and weak results do not stand in their true shares. Some salts or complexes appear as unconnected parts, following the source record. Calls of active or inactive are those of the source.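 How the source made its calls: active means inhibition above a per-plate cutoff of the control wells' mean inhibition plus 3 SD (cut at about 5.5% in these data); inactive means the rest.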

Test system: methionyl-tRNA synthetase (Trypanosoma brucei brucei)
Assay: T. brucei MetRS inhibitors, primary screen, biochemical, luminescence (AID 624268);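 further: 0% = DMSO wells median and 100% = median of wells with control inhibitor compound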
Details: purified T. brucei MetRS, ATP depletion, Kinase-Glo luminescence; at 11.9 µM; stronger effect = higher value
In short: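 assay system = parasite MetRS enzyme | timing = 15 min preincubation, 2 h reaction, all 25 °C | evaluation = percent inhibition relative to median high and low control wells | medium = HEPES buffer containing pyrophosphatase, BSA, spermine, DTT | compound = single dose, 11.9 µM final nominal, 0.9% final DMSO | detection = Kinase-Glo luminescence, ATP depletion format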

Row | SMILES | inhibition
1 | COc1ccccc1OP(C)(=O)Nc1ccccc1 (centres undefined) | inactive: -0.64%
2 | CP(=O)(Nc1ccccc1Br)Oc1ccccc1 (centres undefined) | inactive: 0.44%
3 | CP(=S)(Nn1cnnc1)Oc1ccccc1 (centres undefined) | inactive: -1.48%
4 | CP(=O)(Nc1ccccn1)Oc1ccc(Cl)cc1 (centres undefined) | inactive: -1.22%
5 | CCOP(C)(=S)SCC(=O)NC(C)C(=O)O (centres undefined) | inactive: -0.28%
6 | O=[N+]([O-])c1cc([N+](=O)[O-])c(O)c([N+](=O)[O-])c1.c1ccc(Oc2ccncc2)cc1 | inactive: 1.37%
7 | CCOC(=O)c1ccc(NP(C)(=O)Oc2ccc(OC)cc2)cc1 (centres undefined) | inactive: 0.46%
8 | Cc1cc(C)cc(OP(C)(=O)Nc2ccc(SC(F)(F)F)cc2)c1 (centres undefined) | inactive: -1.5%
9 | CCc1ccc(OP(C)(=O)N2CCN(c3ccc([N+](=O)[O-])cc3)CC2)cc1 (centres undefined) | inactive: 0.11%
10 | CP(=O)(NC(=O)Nc1ccccc1)Oc1ccccc1 (centres undefined) | inactive: -1.37%
11 | CP(=O)(Oc1ccccc1)OC(c1ccccc1)C(F)(F)F (centres undefined) | inactive: -0.41%
12 | CP(=O)(Nc1ccc(SC(F)(F)F)cc1)Oc1ccc(Cl)cc1 (centres undefined) | inactive: -0.13%
13 | Cc1ccc(Nc2c([N+](=O)[O-])cc([N+](=O)[O-])cc2[N+](=O)[O-])cc1 | inactive: 0.04%
14 | Cc1cccc(C)c1OP(C)(=O)Nc1ccc(SC(F)(F)F)cc1 (centres undefined) | inactive: 0.14%
15 | COc1ccccc1-c1ccccn1.O=[N+]([O-])c1cc([N+](=O)[O-])c(O)c([N+](=O)[O-])c1 | inactive: -0.09%
16 | CCN(CC)CCCOC(=O)C(O)(c1ccccc1)c1ccccc1 | inactive: -0.75%
17 | COc1ccc(OP(C)(=O)Nc2cccc(F)c2)cc1 (centres undefined) | inactive: -0.36%
18 | COc1ccccc1OP(C)(=O)Nc1cc(Cl)ccc1C (centres undefined) | inactive: 0.13%
19 | Cc1cc(C)cc(OP(C)(N)=O)c1 (centres undefined) | inactive: -0.64%
20 | CCOC(=O)c1ccc(NP(C)(=O)Oc2ccccc2)cc1 (centres undefined) | inactive: -0.81%
21 | Cc1ccc(NP(C)(=O)Oc2ccccc2)c(C)c1 (centres undefined) | inactive: 0.2%
22 | COc1ccccc1OP(C)(=O)Nc1ccc(C)cc1 (centres undefined) | inactive: -1%
23 | Cc1cccc(C)c1OP(C)(N)=O (centres undefined) | inactive: -0.52%
24 | CC(C)(C)c1ccc(OP(C)(=O)Nc2ccc(SC(F)(F)F)cc2)cc1 (centres undefined) | inactive: -0.2%
25 | O=[N+]([O-])c1ccc2c(c1)C=Nc1ccccc1O2 | inactive: -0.86%

Row | SMILES | inhibition
26 | O=[N+]([O-])c1cc([N+](=O)[O-])c(Nc2cccnc2)c([N+](=O)[O-])c1 | inactive: 0.22%
27 | CC1=NCCc2c1[nH]c1ccccc21.O=[N+]([O-])c1cc([N+](=O)[O-])c(O)c([N+](=O)[O-])c1 | inactive: 0.41%
28 | O=C(O)c1cccc(Nc2c([N+](=O)[O-])cc([N+](=O)[O-])cc2[N+](=O)[O-])c1 | inactive: 0.55%
29 | CP(=O)(Nc1cccc(Br)c1)Oc1ccccc1 (centres undefined) | inactive: -0.21%
30 | Cc1cc(C)cc(OP(C)(=O)Nc2ccccn2)c1 (centres undefined) | inactive: -0.95%
31 | Cc1ccc(C)c(NP(C)(=O)Oc2ccccc2)c1 (centres undefined) | inactive: -1.69%
32 | Cc1cc(C)cc(OP(C)(=O)Nc2ccc(C)cc2C)c1 (centres undefined) | inactive: 0.02%
33 | CCOC(=O)c1ccc(NP(C)(=O)Oc2cc(C)cc(C)c2)cc1 (centres undefined) | inactive: 0.23%
34 | COc1ccccc1OP(C)(=O)Nc1cccc(Br)c1 (centres undefined) | inactive: 0.66%
35 | Cc1nc2ccc3ccccc3c2s1.O=[N+]([O-])c1cc([N+](=O)[O-])c(O)c([N+](=O)[O-])c1 | inactive: 0.27%
36 | O=[N+]([O-])c1cc([N+](=O)[O-])c(-c2cnn(-c3ccccc3)c2)c([N+](=O)[O-])c1 | inactive: 0.36%
37 | CN(Cc1cccnc1)C(=O)COc1ccc(Cl)c(Cl)c1.O=[N+]([O-])c1cc([N+](=O)[O-])c(O)c([N+](=O)[O-])c1 | inactive: -0.66%
38 | O=[N+]([O-])c1cc([N+](=O)[O-])c(-n2nnc3ccccc32)c([N+](=O)[O-])c1 | inactive: -1.34%
39 | CP(=O)(Nc1ccc(SC(F)(F)F)cc1)Oc1ccccc1 (centres undefined) | inactive: -0.06%
40 | CCCOc1ccc(NP(C)(=O)Oc2ccc(Cl)cc2)cc1 (centres undefined) | inactive: -0.11%
41 | COc1ccc(-c2ccccn2)cc1.O=[N+]([O-])c1cc([N+](=O)[O-])c(O)c([N+](=O)[O-])c1 | inactive: -0.64%
42 | CN1CCCCC1COC(=O)C1(O)c2ccccc2CCc2ccccc21 (centres undefined) | inactive: -0.94%
43 | COc1ccccc1OP(C)(=O)Nc1c(C)cccc1C (centres undefined) | inactive: -0.08%
44 | CCOC(=O)C(CC)C1=NC(C)(C)Cc2ccccc21.O=[N+]([O-])c1cc([N+](=O)[O-])c(O)c([N+](=O)[O-])c1 (centres undefined) | inactive: 0.61%
45 | O=[N+]([O-])c1cc([N+](=O)[O-])c(Nc2nnnn2CCO)c([N+](=O)[O-])c1 | inactive: -0.1%
46 | CC1=C2N=C(C=C3N=C(C(C)=C4[N-][C@@](C)([C@@H]5N=C1[C@](C)(CCC(=O)NC[C@@H](C)OP(=O)([O-])O[C@H]1[C@@H](O)[C@@H](n6cnc7cc(C)c(C)cc76)O[C@@H]1CO)[C@H]5CC(N)=O)[C@@](C)(CC(N)=O)[C@@H]4CCC(N)=O)[C@@](C)(CC(N)=O)[C@@H]3CCC(N)=O)C(C)(C)[C@@H]2CCC(N)=O.[C-]#N.[Co+3] | inactive: 2.66%
47 | Cc1c(C(c2ccc3c(c2)OCO3)c2c(C)n(C)n(-c3ccccc3)c2=O)c(=O)n(-c2ccccc2)n1C.O=[N+]([O-])c1cc([N+](=O)[O-])c(O)c([N+](=O)[O-])c1 | inactive: 0.04%
48 | Cc1cc(-c2cccc3ccccc23)c(C)cn1.O=[N+]([O-])c1cc([N+](=O)[O-])c(O)c([N+](=O)[O-])c1 | inactive: -0.09%
49 | O=[N+]([O-])c1cc([N+](=O)[O-])c(NCC2CCS(=O)(=O)C2)c([N+](=O)[O-])c1 (centres undefined) | inactive: 0.1%
50 | O=[N+]([O-])c1ccc(OP2(=O)COCCO2)cc1 (centres undefined) | inactive: 0.45%

Row | SMILES | inhibition
51 | COc1ccc(NP(C)(=O)Oc2ccccc2OC)cc1 (centres undefined) | inactive: -0.59%
52 | CN(C)CCOC(=O)C(O)(c1ccccc1)C1CCCCC1 (centres undefined) | inactive: -0.35%
53 | COc1ccc(OP(C)(=O)Nc2cccc(Br)c2)cc1 (centres undefined) | inactive: -0.69%
54 | O=[N+]([O-])c1cc([N+](=O)[O-])c(C(F)(F)F)c([N+](=O)[O-])c1O | inactive: -0.33%
55 | Cc1ccccc1NP(C)(=O)Nc1ccccc1C | inactive: -0.52%
56 | CP(=O)(Nc1ccc2c(c1)OCCO2)Oc1ccccc1 (centres undefined) | inactive: -1.42%
57 | CCOP(C)(=S)SCC(=O)NC(C)(CC)C(=O)O (centres undefined) | inactive: 0.16%
58 | CP(=O)(Nc1ccc(SC(F)(F)F)cc1)Oc1ccc(F)cc1 (centres undefined) | inactive: -0.13%
59 | COc1ccc2c(c1O)-c1c(O)c(OC)cc3c1[C@H](C2)[N+](C)(C)CC3.O=[N+]([O-])c1cc([N+](=O)[O-])c([O-])c([N+](=O)[O-])c1[O-] | inactive: 0.13%
60 | O=C(OCCN1CCN(CCOCc2ccccc2)CC1)C(O)(c1ccccc1)c1ccccc1 | inactive: 0.1%
61 | O=C(OC1CN2CCC1CC2)c1ccc([N+](=O)[O-])cc1 (centres undefined) | inactive: 2.07%
62 | CC(C)c1ccc(OP(C)(=O)Nc2ccc(SC(F)(F)F)cc2)cc1 (centres undefined) | inactive: -0.62%
63 | CP(=O)(Nc1ccccc1F)Oc1ccccc1 (centres undefined) | inactive: -0.62%
64 | O=[N+]([O-])c1cc([N+](=O)[O-])c(Nc2ccc(Cl)cc2)c([N+](=O)[O-])c1 | inactive: 0.63%
65 | CCCCCOc1ccc(NP(C)(=O)Oc2ccc(Cl)cc2Cl)cc1 (centres undefined) | inactive: 1.47%
66 | O=[N+]([O-])c1cc([N+](=O)[O-])c(OC2CCCCC2O)c([N+](=O)[O-])c1 (centres undefined) | inactive: -0.03%
67 | CP(=O)(Nc1ccccc1)Oc1ccc(F)cc1 (centres undefined) | inactive: -0.42%
68 | CCN(CC)CCCOC(=O)C(O)(c1ccccc1)C1CCCCC1 (centres undefined) | inactive: 0.16%
69 | Cc1c([N+](=O)[O-])cc([N+](=O)[O-])c(Br)c1[N+](=O)[O-] | inactive: 0.33%
70 | COc1ccc(OP(C)(=O)Nc2ccc(SC(F)(F)F)cc2)cc1 (centres undefined) | inactive: -0.38%
71 | CCOC(=O)c1ccc(NP(C)(=O)Oc2ccc(F)cc2)cc1 (centres undefined) | inactive: 0.25%
72 | CCN(CC)CCCNc1ccccc1[N+](=O)[O-].O=[N+]([O-])c1cc([N+](=O)[O-])c(O)c([N+](=O)[O-])c1 | inactive: 0.06%
73 | CP(=O)(OCCOc1ccccc1)OCCOc1ccccc1 | inactive: -0.94%
74 | CCCCCCCCCCCCCCCC1C[N+](C)(C)CCOP(C)(=O)O1 (centres undefined) | inactive: -0.7%
75 | CP(=O)(Nc1ccc(Cl)cc1Cl)Oc1ccccc1 (centres undefined) | inactive: -0.87%

Row | SMILES | inhibition
76 | COc1ccc(OP(C)(=O)Nc2ccccc2Br)cc1 (centres undefined) | inactive: 0.08%
77 | COc1ccccc1OP(C)(=O)Nc1ccc(C)c(C)c1 (centres undefined) | inactive: -0.48%
78 | Cc1cc(C)cc(OP(C)(=O)Nc2cccc(C(F)(F)F)c2)c1 (centres undefined) | inactive: -1.38%
79 | O=C1C(O)=C([N+](=O)[O-])C(=O)C(O)=C1[N+](=O)[O-] | inactive: -0.12%
80 | CCc1ccc(OP(C)(=O)O)cc1 | inactive: -1.31%
81 | COc1ccccc1OP(C)(=O)Nc1ccc(C)cc1C (centres undefined) | inactive: -0.43%
82 | CP(=O)(Nc1ccccn1)Oc1ccccc1 (centres undefined) | inactive: -1.24%
83 | O=[N+]([O-])c1cc([N+](=O)[O-])c(Nc2ccccn2)c([N+](=O)[O-])c1 | inactive: -0.23%
84 | Cc1c(NP(C)(=O)Oc2ccc(C(C)C)cc2)c(=O)n(-c2ccccc2)n1C (centres undefined) | inactive: -1.01%
85 | CN(C)CCOC(=O)C(O)(c1ccccc1)C1CCCC1 (centres undefined) | inactive: -0.48%
86 | COc1ccc(OP(C)(=O)Nc2ccccn2)cc1 (centres undefined) | inactive: -0.11%
87 | COc1ccccc1OP(C)(=O)Nc1ccc(Br)cc1 (centres undefined) | inactive: 0.05%
88 | CN(C)C(=O)c1c([N+](=O)[O-])cc([N+](=O)[O-])cc1[N+](=O)[O-] | inactive: -0.69%
89 | CP(=O)(Nc1ccc(Cl)cc1)Oc1ccc(F)cc1 (centres undefined) | inactive: 0.03%
90 | CC(C)(C)c1ccc(OP(C)(=O)O)cc1 | inactive: 0.3%
91 | COc1ccccc1OP(C)(=O)Nc1ccccc1Br (centres undefined) | inactive: 0.48%
92 | CCc1ccc(OP(C)(=O)Nc2cccnc2)cc1 (centres undefined) | inactive: 0.53%
93 | CP(=O)(Oc1ccccc1)N1CCOC1=O (centres undefined) | inactive: -0.89%
94 | O=C(OCCCN1CCCC1)C(O)(c1ccccc1)C1CCCCC1 (centres undefined) | inactive: -0.96%
95 | COc1ccccc1OP(C)(=O)Nc1c(C)n(C)n(-c2ccccc2)c1=O (centres undefined) | inactive: -0.25%
96 | COc1ccc(OP(C)(=O)Nc2ccc(Br)cc2)cc1 (centres undefined) | inactive: 0.09%
97 | CCN(CC)CC(O)COC(=O)C(O)(c1ccccc1)C1CCCCC1 (centres undefined) | inactive: -0.35%
98 | CP(=O)(OC12CC3CC(CC(C3)C1)C2)OC12CC3CC(CC(C3)C1)C2 | inactive: -0.65%
99 | CCOC(=O)c1ccc(NP(C)(=O)Oc2ccc(Cl)cc2)cc1 (centres undefined) | inactive: 0.89%
